This note sets out measurements from article PMC13683342, “Integrative structure of norovirus NS3 suggests a role in RNA transport” (2026).

Amino acid sequences for entries named in this document (tags omitted). Residues count along the entry.
UniProt Q83883, 460-761 limits assumed: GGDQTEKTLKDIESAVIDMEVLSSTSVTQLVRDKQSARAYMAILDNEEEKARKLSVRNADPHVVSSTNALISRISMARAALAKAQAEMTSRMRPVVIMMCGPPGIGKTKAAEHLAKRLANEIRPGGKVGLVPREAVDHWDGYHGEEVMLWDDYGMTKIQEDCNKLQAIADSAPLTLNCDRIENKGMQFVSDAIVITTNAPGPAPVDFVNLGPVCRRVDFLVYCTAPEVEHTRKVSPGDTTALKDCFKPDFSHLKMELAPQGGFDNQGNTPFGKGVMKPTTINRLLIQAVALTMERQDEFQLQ

The experiment deals with MBP-hex-NS3 (Norovirus Hu/1968/US, UniProt Q83883). Briefly: malachite green ATPase assay. The following applies: 1 mM ATP, 10 mM MgCl2, pH 7.5, 37 °C, 30 min preincubation; caption calls the construct hex-NS3, b13 says MBP-tagged used. An excerpt:
malachite green ATPase assay on MBP-hex-NS3 | dose-dependent decrease in ATP hydrolysis in the presence of increasing concentrations of ATPγS

On to `Nc1ncnc2c1ncn2[C@@H]1O[C@H](COP(=O)(O)OP(=O)(O)OP(O)(O)=S)[C@@H](O)[C@H]1O`, for which the “dose-dependent decrease in ATP hydrolysis” value is “dose-dependent decrease in ATP hydrolysis in the presence of increasing concentrations of ATPγS”.
